Pooled drug test results. Numbers come from NIAID ChemDB, via PubChem.

Shared fields: tests in culture; organism: Mycobacterium tuberculosis

Percent inhibition refers to the dose given; in toxicity tests it is the harm to the cells. Blank or dashed fields: not listed here. MIC bound: limit read from a one-dose screen. Neighbouring rows are from separate reports. A number after MIC or MFC names an inhibition level or a share of isolates. ECn: concentration that inhibits the pathogen or its effect by n%.

| structure | changes | strain | method | cells | measure | conditions | dose | value |
|---|---|---|---|---|---|---|---|---|
| O=C(O)/C=C/c1cnc[nH]1 | - | H37Rv | - | - | MIC | - | - | >6.25 µg/mL |
| CO[C@H]1/C=C/O[C@@]2(C)Oc3c(C)c(O)c4c(=O)c(c5oc6cc(N7CCN(CC(C)C)CC7)cc(=O)c6nc5c4c3=C2O)NC(=O)/C(C)=C\C=C\[C@H](C)[C@H](O)[C@@H](C)[C@@H](O)[C@@H](C)[C@H](OC(C)=O)[C@@H]1C | - | H37Rv | - | - | inhibition | inside macrophages | 1 µg/mL | 97.4% |
| CCCCN1CCN(c2ccc3nc(-c4ccc5nc(-c6ccc(OCC)cc6)[nH]c5c4)[nH]c3c2)CC1 | - | H37Rv | broth dilution / turbidity | - | MIC90 | - | - | 9.8 µg/mL |
| CCCn1c(=O)c2c3c(cnc2n(CCC)c1=O)C(=O)C1=C(C3=O)C2CCC1CC2 | pSMT1 luciferase reporter plasmid | H37Rv | luminescence | - | EC90 | - | - | 5.98 µg/mL |
| CC(=O)OCC(=O)[C@H]1CC[C@H]2[C@@H]3CCC4=CC(=O)CC[C@]4(C)[C@H]3CC[C@]12C | - | - | - | - | MIC90 | - | - | 64 µg/mL |
| NCCCC(N)CC(=O)NCC1NC(=O)C(CO)NC(=O)C(NC(=O)CC(N)CCCN)CNC(=O)C(C2CCN=C(N)N2)NC(=O)/C(=C/NC(N)=O)NC1=O | - | Isolate VIM-R/4 | - | - | MIC | - | - | 20 µg/mL |
| S=C(Nc1ccccc1)Nc1ccc(-c2nnc(NCc3ccccc3)s2)cc1 | - | H37Rv | - | - | EC50 | - | - | >6.25 µg/mL |
| C[C@H]1COc2c(N3CCN(C)CC3)c(F)cc3c(=O)c(C(=O)O)cn1c23 | - | 1S | - | - | MIC | - | - | 0.5 µg/mL |
| COc1ccccc1OC(=O)c1ccc(N)cc1O | - | H37Rv (streptomycin-resistant) | - | - | MIC | - | - | 0.01 µg/mL |
| O=C(O)COc1ccc(C(=O)/C(SS/C(C(=O)c2ccc(OCC(=O)O)c(Cl)c2Cl)=C2\C=C(c3ccc(F)cc3)SS2)=C2/C=C(c3ccc(F)cc3)SS2)c(Cl)c1Cl | - | H37Rv | BACTEC | - | MIC | - | - | ≥12.5 µg/mL |
| NCCC[C@H](N)CC(=O)N[C@H]1CNC(=O)[C@H]([C@H]2C[C@H](O)NC(N)=N2)NC(=O)/C(=C/NC(N)=O)NC(=O)[C@H](CO)NC(=O)[C@H](CO)NC1=O | - | Isolate VIM-S | - | - | MIC | - | - | 5 µg/mL |
| CCCCCCCCOc1ccc2cc1Oc1cc(ccc1OC)CCCCC(=O)CC2 | - | H37Rv | broth dilution | - | MIC | - | - | >200 µg/mL |
| O=C1NC(Nc2ccc(Cl)cc2)=N/C1=C\c1ccc(Cl)cc1Cl | - | H37Rv | - | - | MIC | - | - | >12.5 µg/mL |
| NC1=NNC2(C(=O)N1)c1ccccc1-c1ccccc12 | - | H37Rv | BACTEC | - | MIC | - | - | 6.25 µg/mL |
| COc1ccc(Nc2nnc(-c3ccc(NC(=S)Nc4ccccc4)cc3)s2)cc1 | - | H37Rv | - | - | EC50 | - | - | >6.25 µg/mL |
| Cn1cnc2c(NC(=O)c3ccc(C(F)(F)F)cc3)nc(Cl)cc21 | - | H37Rv | visual reading | - | MIC99 | - | - | 0.25 µM |
| Cc1cc2c(cc1C)[n+](=O)c(C(=O)Nc1ccccc1)c(C)n2[O-] | - | H37Rv | - | - | inhibition | - | 6.25 µg/mL | 0% |
| CCN(CC)CCCNc1nnc2c(=O)n(C)c(=O)n(C)c2n1 | - | H37Rv | BACTEC | - | inhibition | - | 12.5 µg/mL | 17% |
| COc1ccccc1N1CCN(C(=O)c2c(C)n([O-])c3cc(Cl)c(Cl)cc3[n+]2=O)CC1 | - | H37Rv | - | - | inhibition | - | 6.25 µg/mL | 0% |
| CCCCCCCCCCCCOC(=O)c1cc(O)c(O)c(O)c1 | - | - | - | - | MIC90 | - | - | 64 µg/mL |
| COc1cccc2c1C(=O)c1c(O)c3c(c(O)c1C2=O)CC(O)(C(O)CO)CC3OC1CC(N2CCOCC2)C(O)C(C)O1 | - | H37Rv | resazurin | - | inhibition | - | 6.25 µg/mL | 39% |
| COc1cc2c(c3oc(=O)c4c(c13)CCC4=O)C1C=COC1O2 | - | - | - | - | MIC50 | - | - | 32 µg/mL |
| Cn1cnc2c(NC(=O)Nc3ccccc3Cl)nc(Cl)cc21 | - | H37Rv | visual reading | - | MIC99 | - | - | 12.5 µM |
| COc1cc(C(=O)n2c(=O)oc(=O)c3cc([N+](=O)[O-])ccc32)cc(OC)c1OC | - | H37Rv | resazurin | - | inhibition | - | 6.25 µg/mL | -15% |
| O=C(O)c1ccccc1O | - | 7800 | - | - | inhibition | - | 20 µM | 0% |
| O=[N+]([O-])[O][Ga]([O][N+](=O)[O-])[O][N+](=O)[O-] | - | H37Ra | - | - | inhibition | - | 500 µM | 95% |
| NNC(=O)c1ccc[n+](CCc2ccccc2)c1.[Br-] | - | H37Rv | BACTEC | - | MIC bound | - | - | >12.5 µg/mL |
| Cn1cnc2c(NC(=O)NCc3ccccc3)nc(Cl)cc21 | - | H37Rv | visual reading | - | MIC99 | - | - | 25 µM |
| COc1ccc2cc1Oc1cc(ccc1OC/C=C(\C)CCC=C(C)C)CCC(=O)CCCC2 | - | H37Rv | broth dilution | - | MIC | - | - | >200 µg/mL |
| COC(=O)[C@H]1[C@H]2C[C@@H]3c4[nH]c5cc(OC)ccc5c4CCN3C[C@H]2C[C@@H](OC(=O)/C=C/c2cc(OC)c(OC)c(OC)c2)[C@@H]1OC | - | - | - | - | MIC90 | - | - | 64 µg/mL |
| CCOC(=O)c1cnc[nH]1 | - | H37Rv | - | - | inhibition | - | 6.25 µg/mL | 21% |
| O=C(NCCO)C(=O)N/N=C/c1ccc([N+](=O)[O-])o1 | - | RMP-R | - | - | MIC | - | - | 12.5 µg/mL |
| CC(C)c1ncc(C(=O)O)[nH]1 | - | H37Rv | - | - | inhibition | - | 6.25 µg/mL | 3% |
| CO[C@H]1/C=C/O[C@@]2(C)Oc3c(C)c(O)c4c(O)c(c(/C=N/N5CCN(C)CC5)c(O)c4c3C2=O)NC(=O)/C(C)=C\C=C\[C@H](C)[C@H](O)[C@@H](C)[C@@H](O)[C@@H](C)[C@H](OC(C)=O)[C@@H]1C | - | Praha 1 | - | - | MIC | - | - | >9.7 µM |
| COc1ccc(CCCCC(=O)/C=C/c2ccc(OC)c(Br)c2)cc1O | - | H37Rv | broth dilution | - | MIC | - | - | >200 µg/mL |
| CCNc1nnc(-c2ccc(NC(=S)Nc3ccccc3)cc2)s1 | - | H37Rv | - | - | MIC | - | - | >6.25 µg/mL |
| O=C1NC(NNC(=O)c2ccncc2)=N/C1=C\c1ccc(Cl)cc1 | - | H37Rv | resazurin | VERO | EC50 | - | - | <12.5 µg/mL |
| Nc1ccc(C(=O)Oc2ccccc2)c(O)c1 | - | H37Rv (streptomycin-resistant) | - | - | MIC | - | - | 0.005 µg/mL |
| O=c1c(Cl)c(Cl)c(=O)c2sc3cc(Cl)ccc3[nH]c1=2 | - | H37Rv | BACTEC | - | MIC bound | - | - | >12.5 µg/mL |
| Fc1ccc(Nc2nnc(-c3ccc(NC(=S)Nc4ccccc4)cc3)s2)cc1 | - | H37Rv | - | - | MIC | - | - | >6.25 µg/mL |
| COc1ccc(/C=C/C(=O)c2c(O)cc(O[C@@H]3O[C@H](CO)[C@@H](O)[C@H](O)[C@H]3O[C@@H]3O[C@@H](C)[C@H](O)[C@@H](O)[C@H]3O)cc2O)cc1O | - | - | - | - | MIC90 | - | - | >128 µg/mL |
| CC(C)n1c(=O)c2c3c(cnc2n(C(C)C)c1=O)C(=O)C1=C(C3=O)C2CCC1CC2 | pSMT1 luciferase reporter plasmid | H37Rv | luminescence | - | EC99 | - | - | 4.89 µg/mL |
| Cn1cnc2c(NC(=O)Nc3ccc(C#N)cc3)nc(Cl)cc21 | - | H37Rv | visual reading | - | MIC99 | - | - | >25 µM |
| O=[N+]([O-])/N=c1/nc2scc(-c3ccc([N+](=O)[O-])cc3)n2s1 | - | H37Rv | resazurin | - | MIC | - | - | 6.25 µg/mL |
| C[C@]1(COc2ccc(N3CCC(Oc4ccc(OC(F)(F)F)cc4)CC3)cc2)Cn2cc([N+](=O)[O-])nc2O1 | - | ATCC 25618 (H37RV) | - | - | MIC | - | - | 0.012 µg/mL |
| CC1(C)N=C(N)N=C(N)N1c1ccc(CCCC(=O)Nc2ccc(S(=O)(=O)F)cc2)c(Cl)c1.CCS(=O)(=O)O | - | H37Rv | BACTEC | - | inhibition | - | 12.5 µg/mL | 98% |
| NNC(=O)CCc1cnc(C2C3CC4CC(C3)CC2C4)[nH]1 | - | H37Rv | - | - | MIC | - | - | >6.25 µg/mL |
| O=C1CC(=O)N(c2ccccc2)O1 | - | H37Rv | resazurin | - | MIC bound | - | - | >6.25 µg/mL |
| Cc1c(C(=O)N2CCN(c3ccc([N+](=O)[O-])cc3)CC2)[n+](=O)c2cc(Cl)c(Cl)cc2n1[O-] | - | H37Rv | - | - | MIC | - | - | >6.25 µg/mL |
| COc1ccccc1N=NC(C#N)C(N)=O | - | H37Rv | BACTEC | - | MIC bound | - | - | >12.5 µg/mL |
| CO[C@H]1/C=C/O[C@@]2(C)Oc3c(C)c(O)c4c(O)c(c(/C=N/N5CCN(C)CC5)c(O)c4c3C2=O)NC(=O)/C(C)=C\C=C\[C@H](C)[C@H](O)[C@@H](C)[C@@H](O)[C@@H](C)[C@H](OC(C)=O)[C@@H]1C | - | 3426 | resazurin | - | MIC | - | - | 30 µg/mL |
| NCC[C@H](O)C(=O)N[C@@H]1C[C@H](N)[C@@H](O[C@H]2O[C@H](CN)[C@@H](O)[C@H](O)[C@H]2O)[C@H](O)[C@H]1O[C@H]1O[C@H](CO)[C@@H](O)[C@H](N)[C@H]1O | - | 11S | - | - | MIC | - | - | 2.5 µg/mL |
| Cn1c(=O)c2c3c(cnc2n(C)c1=O)C(=O)C1=C(C3=O)C2CCC1C2 | pSMT1 luciferase reporter plasmid | H37Rv | luminescence | - | EC99 | - | - | 10.43 µg/mL |
| O=C1NC(NNC(=O)c2ccncc2)=N/C1=C\c1c(Cl)cccc1Cl | - | H37Rv | resazurin | - | inhibition | - | 12.5 µg/mL | 17% |
| COCN1C(=O)CN=C(c2ccccc2)c2cc(NO)ccc21 | - | H37Rv | BACTEC | - | inhibition | - | 12.5 µg/mL | -34% |
| NNC(=O)c1nc(C2CCCC2)[nH]c1C1CCCC1 | - | H37Rv | - | - | inhibition | - | 6.25 µg/mL | 0% |
| Cc1cc(COC(=O)c2ccc(N)cc2O)ccc1C(C)C | - | H37Rv (p-aminosalicylate-resistant) | - | - | MIC | - | - | 100 µg/mL |
| CN(C)c1cc(O)c(-n2c3cc(=O)c(N(C)C)cc-3nc3ccccc32)cc1O | - | H37Rv | BACTEC | - | MIC bound | - | - | >12.5 µg/mL |
| Cn1cnc2c(NS(=O)(=O)c3ccc(Cl)cc3)nc(Cl)cc21 | - | H37Rv | visual reading | - | MIC99 | - | - | 25 µM |
| CCn1c(=O)c2c3c(cnc2n(CC)c1=O)C(=O)C1=C(C3=O)C2CCC1CC2 | pSMT1 luciferase reporter plasmid | H37Rv | luminescence | - | EC99 | - | - | 12.06 µg/mL |
| CC1=C(C(=O)NN)CC/C1=N\N | - | H37Rv | BACTEC | - | MIC bound | - | - | >12.5 µg/mL |
| CC(C)(C)c1nc(C(=O)NN)c(C(C)(C)C)[nH]1 | - | H37Rv | - | - | inhibition | - | 6.25 µg/mL | 20% |
| Cl.N=c1c2ccccc2nc2oc3ccc(Cl)cc3n12 | - | H37Rv | BACTEC | - | MIC bound | - | - | >12.5 µg/mL |
| Cc1cc(=O)oc2cc(N)ccc12 | - | H37Rv | resazurin | - | MBC | - | - | >1500 µg/mL |
| Cc1cccc(NC(=O)Nc2nc(Cl)cc3c2ncn3C)c1 | - | H37Rv | visual reading | - | MIC99 | - | - | 25 µM |
| CCOC(=O)c1cc(=O)c2cc(-c3ccccc3)ccc2[nH]1 | - | H37Rv | BACTEC | - | inhibition | - | 12.5 µg/mL | 64% |
| COc1ccc2cc1Oc1cc(ccc1OC)CCC(NCc1ccccc1)CCCC2 | - | H37Rv | broth dilution | - | MIC | - | - | 25 µg/mL |
| CO[C@H]1/C=C/O[C@@]2(C)Oc3c(C)c(O)c4c(O)c(c(/C=N/N5CCN(C6CCCC6)CC5)c(O)c4c3C2=O)NC(=O)/C(C)=C\C=C\[C@H](C)[C@H](O)[C@@H](C)[C@@H](O)[C@@H](C)[C@H](OC(C)=O)[C@@H]1C | - | L407 | - | - | MIC | - | - | 0.1 µg/mL |
| CC1=NC(C)(COC(=O)C2(C)NC(C)(CO)CO2)COC1=O | - | H37Rv | BACTEC | - | inhibition | - | 12.5 µg/mL | 17% |
| Cc1cc2c(cc1C)[n+](=O)c(C(=O)NC(C)(C)C)c(C)n2[O-] | - | H37Rv | - | - | MIC | - | - | >6.25 µg/mL |
| COc1ccc2cc1Oc1cc(ccc1OC(C)C)CCC(=O)CCCC2 | - | H37Rv | broth dilution | - | MIC | - | - | 25 µg/mL |
| Cc1ccccc1NC(=O)c1c(C)n([O-])c2ccc(Cl)cc2[n+]1=O | - | H37Rv | - | VERO | MIC | - | - | 6.25 µg/mL |
| Cn1cnc2c(NC(=O)c3cccc(F)c3)nc(Cl)cc21 | - | H37Rv | visual reading | - | MIC99 | - | - | 6.25 µM |
| CN1CC(=O)NC2C(=CN(Cc3ccccc3)c3ccccc32)C1=O | - | H37Rv | BACTEC | - | inhibition | - | 12.5 µg/mL | 8% |
| N[C@@H]1CN(c2c(F)cc3c(=O)c(C(=O)O)cn([C@@H]4C[C@@H]4F)c3c2Cl)CC12CC2 | - | 25 strains | - | - | MIC90 | - | - | 0.2 µg/mL |
| CCCCCCOC(=O)c1ccccc1 | - | H37Rv | visual reading | - | MBC | - | - | >512 µg/mL |
| COc1cc2c(cc1OC)-c1cc3ccc(OC)c(OC)c3c[n+]1CC2 | - | - | - | - | MIC50 | - | - | 64 µg/mL |
| O=C1NC(NNC(=O)c2ccncc2)=N/C1=C\c1ccccc1Cl | - | Isoniazid-resistant | - | - | MBC | - | - | >100 µg/mL |
| COc1ccc2oc3c(OC)c(OC)c(OC)cc3c(=O)c2c1 | - | H37Rv | BACTEC | - | inhibition | - | 12.5 µg/mL | 0% |
| O=C(O)CCc1cnc(C2CCCC2)[nH]1 | - | H37Rv | - | - | inhibition | - | 6.25 µg/mL | 0% |